Test results as given in US20020058669A1, “PROCESS FOR THE TREATMENT OF ORGANOPHOSPHATE POISONING” (published 2002).

Assays:
soman-poisoning in rats = test: Protection of CPA injected 1 min after soman-poisoning in rats; settings: CPA 2 mg/kg i.m. alone, no soman, n = 2
[1] = test system: release of ACh from a rat diaphragm endplate zone; test: In vitro release of ACh from rat diaphragm endplate zone; settings: 300 nM NECA

## OC[C@H]1O[C@@H](n2cnc3c(NC4CCCC4)ncnc32)[C@H](O)[C@@H]1O
soman-poisoning in rats
  Survival time: >24 h

## 5′-N-ethylcarboxamido-adenosine
[1]
  decrease of the release of ACh: 70%
